Results published in patent US20060002932A1, “Methods and compositions for enhancement of immunity by in vivo depletion of immunosuppressive cell activity” (priority 2004, published 2006).

Sequences of proteins named here, by UniProt entry; tags and fusion partners are left off. Residues count along the entry.
UniProt P01589, 22-272: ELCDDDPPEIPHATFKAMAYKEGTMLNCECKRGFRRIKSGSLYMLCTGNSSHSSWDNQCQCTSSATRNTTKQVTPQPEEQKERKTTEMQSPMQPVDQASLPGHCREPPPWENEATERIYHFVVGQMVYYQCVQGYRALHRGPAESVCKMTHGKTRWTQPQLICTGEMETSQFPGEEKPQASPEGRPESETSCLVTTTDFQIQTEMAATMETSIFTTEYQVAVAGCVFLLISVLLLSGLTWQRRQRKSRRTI
UniProt P14784, 27-551: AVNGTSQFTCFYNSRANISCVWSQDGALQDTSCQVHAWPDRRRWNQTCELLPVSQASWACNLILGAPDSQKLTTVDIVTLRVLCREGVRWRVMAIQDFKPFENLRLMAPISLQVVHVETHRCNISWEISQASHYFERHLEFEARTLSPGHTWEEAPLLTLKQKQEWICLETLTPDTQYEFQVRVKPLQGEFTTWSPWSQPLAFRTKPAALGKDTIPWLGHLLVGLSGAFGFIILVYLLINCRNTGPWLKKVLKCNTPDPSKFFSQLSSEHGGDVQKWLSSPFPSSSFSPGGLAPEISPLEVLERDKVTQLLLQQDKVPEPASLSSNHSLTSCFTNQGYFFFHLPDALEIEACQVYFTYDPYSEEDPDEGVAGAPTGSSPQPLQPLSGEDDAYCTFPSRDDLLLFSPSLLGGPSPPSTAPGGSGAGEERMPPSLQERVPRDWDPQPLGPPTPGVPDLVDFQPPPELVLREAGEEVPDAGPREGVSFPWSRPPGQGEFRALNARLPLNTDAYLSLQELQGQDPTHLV
UniProt P31785, 23-369: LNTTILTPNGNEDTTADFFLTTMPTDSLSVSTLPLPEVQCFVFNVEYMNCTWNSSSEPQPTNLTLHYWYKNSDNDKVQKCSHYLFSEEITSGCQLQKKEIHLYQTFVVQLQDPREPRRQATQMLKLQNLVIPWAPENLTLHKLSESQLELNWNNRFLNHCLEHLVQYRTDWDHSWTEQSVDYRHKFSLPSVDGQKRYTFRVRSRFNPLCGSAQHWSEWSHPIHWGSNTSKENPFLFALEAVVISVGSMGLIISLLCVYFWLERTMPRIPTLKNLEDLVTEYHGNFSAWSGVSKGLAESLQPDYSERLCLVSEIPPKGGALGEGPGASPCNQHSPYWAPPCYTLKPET

How the values were obtained:
[1] = system: PBMC and regulatory T cells mixed at 1:1 ratio; conditions: PBMC and Treg 1:1, DAB389IL-2 5 nM, 48 hours
[2] = molecular target: high-affinity IL-2 receptor (Homo sapiens, UniProt P01589+P14784+P31785); conditions: read-out: dissociation constant; DAB389IL-2 and the high-affinity IL-2 receptor; cited from earlier work

Q: Which “reduction of cell viability” value [1] does the source give for denileukin diftitox [DAB389IL-2] here?
A: more than 60%

Q: And the Kd [2]?
A: 1 pM
